A mixed list of measured activities; the numbers were collected in NIAID ChemDB.

Common to all: whole-cell or culture tests; agent: HIV-1; endpoint: EC50

ECn: concentration that inhibits the pathogen or its effect by n%. Rows are shuffled and stem from different studies. An empty or dashed field is not shown.

SMILES | mutations | conditions | cells | method | strain | result
CC1(C)CC(NC(=O)C(=O)Nc2ccc(Cl)cc2)CC(C)(C)N1 | - | - | TZM-bl | luciferase / single cycle | HXB2 | 2.1 µM
COc1cc(/C=C/c2cc[n+]3c(c2)-c2c(c(C)c(C)c4c2-c2cc(/C=C/c5cc(OC)c(OC)cc5COc5ccccc5)cc[n+]2CC4)CC3)c(COc2ccccc2)cc1OC.O=S(=O)([O-])C(F)(F)F.O=S(=O)([O-])C(F)(F)F | - | - | MT-4 | visual reading / absorbance | NL4-3 | 1.76 µM
Fc1ccc(N=C2/C(=C/c3ccco3)CNC/C2=C\c2ccco2)c(F)c1 | - | - | TZM-bl | luciferase / single cycle | HXB2 | >109 µM
CC(C)Nc1cccnc1N1CCN(C(=O)c2cc3cc(NS(C)(=O)=O)ccc3[nH]2)CC1 | - | - | MT-4 | MTT / absorbance | IIIB | 0.033 µM
O=C(N/N=C/c1c(Cl)cccc1Cl)c1csc(N2N=C(c3ccccc3)CC2c2ccc(Cl)cc2)n1 | - | - | MT-4 | MTT / absorbance | IIIB | >6.26 µM
Cc1c(CC23CC4CC(CC(C4)C2)C3)nc(SCC(=O)Nc2ccc(C#N)cc2)[nH]c1=O | - | - | MT-4 | MTT / absorbance | RES056 | >6.69 µM
Cc1cc(S(N)(=O)=O)ccc1NC(=O)COc1ccc(Cl)cc1C(=O)c1cc(Cl)cc(C#N)c1 | RT-K103N Y181C | - | MAGI | β-galactosidase | NNRTI-resistant (RT K103N Y181C) | 0.0014 µM
Cc1cc(C)cc(S(=O)(=O)c2c(C(=O)NCC(=O)NC(C)c3ccncc3)[nH]c3ccc(Cl)cc23)c1 | Y181C | - | MT-4 | cytopathic effect / MTT / absorbance | NL4-3 | 0.0112 µM
COC(=O)[C@H](C)NP(=O)(OC[C@@H]1C=C[C@H](n2cc(C)c(=O)[nH]c2=O)O1)Oc1ccc(Br)cc1 | RT-V35T E40D K173T R211K L214F | - | PBMC | p24 | G3 R5 subtype G/- (env/gag) | 0.0005 µM
CCCCCn1c(=O)c2c(nc3n2CCCN3c2ccc(Oc3ccccc3)cc2)n(C)c1=O | - | - | TZM-bl | β-galactosidase / absorbance | NL4-3 | >20 µM
Fc1ccc(N=C2/C(=C/c3ccco3)CNC/C2=C\c2ccco2)cc1 | - | - | TZM-bl | luciferase / single cycle | HXB2 | >115 µM
Cc1ccc(NC(=O)CSc2nc(CC34CC5CC(CC(C5)C3)C4)c(C)c(=O)[nH]2)c([N+](=O)[O-])c1 | - | - | MT-4 | MTT / absorbance | RES056 | >23.08 µM
O=C(N/N=C/c1ccc(F)cc1)c1csc(N2N=C(c3ccccc3)CC2c2ccc(Cl)cc2)n1 | - | - | MT-4 | MTT / absorbance | IIIB | 0.5 µM
Cc1cn([C@H]2C[C@H](N=[N+]=[N-])[C@@H](CO)O2)c(=O)[nH]c1=O | RT-T69K K70G V75I F77L F116Y Q151M M184V | - | PBMC | p24 | 56252-1 NRTI resistant recombinant | >1 µM
Cc1ccnc2c1NC(=O)c1cccnc1N2C1CC1 | RT-K103N Y144F | - | CEM | cytopathic effect | P-1 (RT-K103N Y144F) | 2.57 µg/mL
Cc1cn([C@H]2C=C[C@@H](CO)O2)c(=O)[nH]c1=O | RT-V35T E40D K173T R211K L214F | - | PBMC | p24 | G3 R5 subtype G/- (env/gag) | 0.1 µM
Cc1cc(O)cc(S(=O)(=O)c2cccc(N)c2C#N)c1 | RT-L100I K103N | - | HeLa + HELA CD4+ | β-galactosidase | - | 5 µM
Cc1cn([C@H]2C[C@H](N=[N+]=[N-])[C@@H](CO)O2)c(=O)[nH]c1=O | - | - | MT-2 | MTT / p24 | IIIB | 0.017 µg/mL
O=C1CN(C(=O)c2cc(-c3cc(F)cc(Cl)c3)n(-c3ccc(F)c(Cl)c3)n2)CN1 | Lu164 | - | MT-4 | luciferase / RT activity | NL4-3 | 0.0009 µM
Cc1ccnc(SC(F)(F)c2nc3ccccc3o2)n1 | - | - | MT-4 | GFP / fluorescence | IIIB | 0.11 µM
CCOC(=O)C(C)OP(=O)(CO[C@@H]1C=C(F)[C@H](n2cnc3c(N)ncnc32)O1)Oc1ccccc1 | - | - | MT-2 | luminescence | IIIB | >2 µM
CCc1c(CC23CC4CC(CC(C4)C2)C3)nc(SCC(=O)Nc2ccc(C#N)cc2)[nH]c1=O | - | - | MT-4 | MTT / absorbance | RES056 | >5.49 µM
COc1cccc(/C=N/NC(=O)c2csc(N3N=C(c4ccccc4)CC3c3ccc(Cl)cc3)n2)c1O | - | - | MT-4 | MTT / absorbance | IIIB | >125 µM
CC(C)=CCOc1cc(NC(=S)c2ccoc2C)ccc1Cl | RT-K103N Y144F | - | CEM | cytopathic effect | P-1 (RT-K103N Y144F) | 0.05 µg/mL
Cc1cc(Br)cc(S(=O)(=O)c2cccc(N)c2C#N)c1 | RT-K103N V108I | - | HeLa + HELA CD4+ | β-galactosidase | - | 4.8 µM
CC(C)(C)NC(=O)[C@@H]1CN(Cc2cccnc2)CCN1C[C@@H](O)C[C@@H](Cc1ccccc1)C(=O)N[C@H]1c2ccccc2C[C@H]1O | - | - | MT-2 | cytopathic effect / neutral red | NL4-3 | 0.0063 µM
Cc1cc(Cl)cc(S(=O)(=O)c2cccc(N)c2C#N)c1 | RT-K103N | - | HeLa + HELA CD4+ | β-galactosidase | - | 0.97 µM
O=S(=O)(OC1/C(=C/c2ccco2)CNC/C1=C\c1ccco1)c1ccccc1 | - | - | TZM-bl | luciferase / single cycle | HXB2 | >101 µM
COc1cc(C(F)(F)F)cc(S(=O)(=O)c2cccc(N)c2C#N)c1 | RT-V108I | - | HeLa + HELA CD4+ | β-galactosidase | - | 0.029 µM
Cc1cn([C@H]2C[C@H](N=[N+]=[N-])[C@@H](CO)O2)c(=O)[nH]c1=O | - | - | MT-2 | cytopathic effect / neutral red | NL4-3 | 0.0183 µM
Nc1nccn(Cc2cc3c(cc2Cl)C(C#CC2CC2)(C(F)(F)F)NC(=O)N3)c1=O | - | pseudotyped | PBMC | GFP | - | 0.031 µM
O=C(N/N=C/c1cccc([N+](=O)[O-])c1)c1csc(N2N=C(c3ccccc3)CC2c2ccc(Cl)cc2)n1 | - | - | MT-4 | MTT / absorbance | IIIB | >0.47 µM
Nc1ncnc2c1ncn2CCOCP(=O)(O)O | - | - | MT-2 | XTT | HXB2D | 10 ± 1.6 µM
Cc1cn([C@H]2C[C@H](N=[N+]=[N-])[C@@H](CO)O2)c(=O)[nH]c1=O | RT-L100V K103R/K Y188H | - | CEM | cytopathic effect | B-1 (RT L100V K103R/K Y188H) | 0.004 µM
CCc1c(CC23CC4CC(CC(C4)C2)C3)nc(SCC(=O)c2ccc(OC)cc2)[nH]c1=O | - | - | MT-4 | MTT / absorbance | RES056 | >17.19 µM

The first 5 rows once more:

SMILES | mutations | conditions | cells | method | strain | result
CC1(C)CC(NC(=O)C(=O)Nc2ccc(Cl)cc2)CC(C)(C)N1 | - | - | TZM-bl | luciferase / single cycle | HXB2 | 2.1 µM
COc1cc(/C=C/c2cc[n+]3c(c2)-c2c(c(C)c(C)c4c2-c2cc(/C=C/c5cc(OC)c(OC)cc5COc5ccccc5)cc[n+]2CC4)CC3)c(COc2ccccc2)cc1OC.O=S(=O)([O-])C(F)(F)F.O=S(=O)([O-])C(F)(F)F | - | - | MT-4 | visual reading / absorbance | NL4-3 | 1.76 µM
Fc1ccc(N=C2/C(=C/c3ccco3)CNC/C2=C\c2ccco2)c(F)c1 | - | - | TZM-bl | luciferase / single cycle | HXB2 | >109 µM
CC(C)Nc1cccnc1N1CCN(C(=O)c2cc3cc(NS(C)(=O)=O)ccc3[nH]2)CC1 | - | - | MT-4 | MTT / absorbance | IIIB | 0.033 µM
O=C(N/N=C/c1c(Cl)cccc1Cl)c1csc(N2N=C(c3ccccc3)CC2c2ccc(Cl)cc2)n1 | - | - | MT-4 | MTT / absorbance | IIIB | >6.26 µM